Anti-infective test results gathered from many reports (values: NIAID ChemDB through PubChem).

Common to all: cytotoxicity tests; cells: MDBK; measure: CC50

Rows are shuffled and stem from different studies. CCn: concentration that lowers growth or viability of the cells by n%.

SMILES | value
CCCCCCCCc1ccc(CONCC(=O)C(=O)[C@H]2NC(=O)[C@H]3NC(=O)[C@H](NC(=O)[C@@H]4NC(=O)[C@H](CC(N)=O)NC(=O)[C@H](NC(=O)[C@@H](CC(C)C)NC)C(O)c5ccc(c(Cl)c5)Oc5cc4cc(c5O[C@@H]4O[C@H](CO)[C@@H](O)[C@H](O)[C@H]4O[C@H]4C[C@](C)(N[NH2+][O-])[C@@H](O)[C@H](C)O4)Oc4ccc(cc4)[C@H]3O[C@H]3C[C@](C)(N)[C@@H](O)[C@H](C)O3)c3ccc(O)c(c3)-c3c(O)cc(O)cc32)cc1 | ≥100 µM
CC(c1ccccc1)n1ccc2nc(-c3ccccc3)nc-2c1 | >75 µg/mL
COc1cc(O)c2c(=O)c3cc([N+](=O)[O-])c(Cl)cc3n(C)c2c1 | >33 µg/mL
N#Cc1ccc(Cn2ccc3nc(-c4ccccc4)nc-3c2)cc1 | 22 µg/mL
CNC(=S)N=Nc1c(O)[nH]c2ccc([N+](=O)[O-])cc12 | >50 µg/mL
CC(C)(C)c1ccc(Cn2ccc3nc(-c4ccccc4)nc-3c2)cc1 | 40 µg/mL
O=[N+]([O-])c1ccc2c(c1)c(N=NC(=S)Nc1ccccc1)c(O)n2CN1CCOCC1 | >50 µg/mL
Cc1ccc(Cn2ccc3nc(-c4ccccc4)nc-3c2)cc1 | 45 µg/mL
CCN1C(=O)CS/C1=N/N=C1\C(=O)Nc2ccc([N+](=O)[O-])cc21 | 17 µg/mL
COc1cc(OC)c2c(=O)c3cc(N)c(Cl)cc3n(C)c2c1 | 83 µg/mL
CC(=O)O[C@H]1CC[C@@]23Oc4c(c(OCc5ccccc5)cc5c4CNC5=O)C[C@]2(C)[C@@H](C)CC[C@H]3C1(C)C | 12 µM
O=[N+]([O-])c1ccc2[nH]c(O)c(N=NC(=S)Nc3ccc(F)cc3)c2c1 | 20 µg/mL
Fc1cccc(F)c1-c1nc2ccn(Cc3ccc(Cl)c(Cl)c3)cc-2n1 | 20 µg/mL
CC(=O)OC1CC[C@@]23Oc4c(c(O)cc5c4C(=O)NC5=O)C[C@]2(C)[C@@H](C)CC[C@H]3C1(C)C | 28 µM
Brc1ccc(Cn2ccc3nc(-c4ccccc4Br)nc-3c2)cc1 | >100 µg/mL
Cc1ccc(NC(=S)N=Nc2c(O)[nH]c3ccc([N+](=O)[O-])cc23)cc1 | 17 µg/mL
C[C@H]1CC[C@H]2C(C)(C)[C@@H](O)CC[C@]23Oc2c(c(O)cc4c2CNC4=O)C[C@]13C | 65 µM
CN1C(=O)CS/C1=N/N=C1\C(=O)Nc2ccc([N+](=O)[O-])cc21 | >50 µg/mL
CC(=O)Oc1cc2c(c3c1C[C@]1(C)[C@@H](C)CC[C@H]4C(C)(C)[C@@H](OC(C)=O)CC[C@]41O3)CNC2=O | 40 µM
FC(F)(F)c1ccc(Cn2ccc3nc(-c4ccccc4)nc-3c2)cc1 | 13 µg/mL
O=C1Nc2ccc([N+](=O)[O-])cc2/C1=N/N=C1/SCC(=O)N1c1ccccc1 | >50 µg/mL

The first 2 rows once more:

SMILES,value
CCCCCCCCc1ccc(CONCC(=O)C(=O)[C@H]2NC(=O)[C@H]3NC(=O)[C@H](NC(=O)[C@@H]4NC(=O)[C@H](CC(N)=O)NC(=O)[C@H](NC(=O)[C@@H](CC(C)C)NC)C(O)c5ccc(c(Cl)c5)Oc5cc4cc(c5O[C@@H]4O[C@H](CO)[C@@H](O)[C@H](O)[C@H]4O[C@H]4C[C@](C)(N[NH2+][O-])[C@@H](O)[C@H](C)O4)Oc4ccc(cc4)[C@H]3O[C@H]3C[C@](C)(N)[C@@H](O)[C@H](C)O3)c3ccc(O)c(c3)-c3c(O)cc(O)cc32)cc1,≥100 µM
CC(c1ccccc1)n1ccc2nc(-c3ccccc3)nc-2c1,>75 µg/mL